# ChEMBL document CHEMBL1143243, “Design, synthesis, evaluation, and crystallographic-based structural studies of HIV-1 protease inhibitors with reduced response to the V82A mutation” (J Med Chem, 2008)
# The chains behind the UniProt entries cited, without tags or fusion partners.
# UniProt Q72874, entry or part of it V82A: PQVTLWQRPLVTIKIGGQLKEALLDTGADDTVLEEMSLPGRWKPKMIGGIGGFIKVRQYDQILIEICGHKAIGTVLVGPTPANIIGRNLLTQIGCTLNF
# Target: Human immunodeficiency virus type 1 protease (Human immunodeficiency virus 1, UniProt Q72874, V82A)
# Experiment: Binding affinity to HIV1 protease V82A mutant
compound,measurement,value
CC(C)[C@H](NC(=O)N(C)Cc1ccccn1)C(=O)N[C@@H](Cc1ccccc1)[C@H](O)[C@@H](O)[C@H](CC1CCCCC1)NC(=O)[C@@H](NC(=O)N(C)Cc1ccccn1)C(C)C,Ki,14 nM
